The values that follow come from paper PMC4020808.

For data set [1], the system named is Nc1ncnc2c1ncn2[C@@H]1O[C@H](COP(=O)(O)OP(=O)(O)OP(=O)(O)O)[C@@H](O)[C@H]1O. As to the kind of experiment: purified protein. To be noted: pH 7.0; 37.0 °C.
Data set [2] has as its system C[C@](O)(CO)[C@H](O)COP(=O)(O)OP(=O)(O)OC[C@H]1O[C@@H](n2ccc(N)nc2=O)[C@H](O)[C@@H]1O. Nature of the data set: purified protein. To be noted: pH 7.0; 37.0 °C.

Take (Burkholderia mallei ATCC 23344): the Km (in general, the concentration of substrate that gives half-maximal velocity) worked out at 76.6 ± 1.1 µM in data set [1] and 31.3 ± 1.5 µM in data set [2].

Regarding “(Vibrio cholerae O1 biovar El Tor str. N16961)”, the Km in data set [1] amounted to 8.8 ± 1.3 µM; in data set [2] it was 52.9 ± 11.7 µM.
